# Measurements published in publication PMC2987821.
# Biological target: Gp41-HR1 (HIV-1)
# Assay: SPR
substance,measurement,value
HK20 IgG (antibody),Kd,3.3 nM
same,koff,0.000727 s⁻¹
same,kon,220000 M⁻¹ s⁻¹
